Test results as given in article PMC6274284 (Molecules, 2016).

System: BrmGRX
Test: One to one NMR signal-broadening kinetic study, BrmGRX
Format: biochemical, Brucella melitensis

C=CC(=O)NCc1ccn(-c2ccc(C(=O)O)cc2)c1 was tested, and the “Enhancement of rate of reaction over naked acrylamide, BrmGRX” value (0.3 mM protein, 0.3 mM compound) was “did not contribute greatly”.

With C=CC(=O)NCc1ccn(-c2ccc(C(=O)OC)cc2)c1 [compound 5, Methyl 4-(3-(Acrylamidomethyl)-1H-pyrrol-1-yl)benzoate] the “Selectivity for BrmGRX (reaction rate)” value (one to one kinetics, BrmGRX versus hGRX) was 1.5–2 fold.
